The text below walks through data of publication PMC3677877 (2013).

The target of the experiment is rKgp: mature recombinant Kgp catalytic domain with the ABM1 motif (Gly681-Ala710) deleted (Porphyromonas gingivalis W50).

Take “Kgp propeptide dimer (covalent, through the single cysteine) (from UniProt Q51817 20-228) (complex)”: the inhibition of 0.15 µM rKgp by the dimer, substrate GPKNA is less than 5 % inhibition and the inhibition of 0.15 µM rKgp by the equivalent dimer, substrate DQ-BSA is less than 4 % inhibition.
